Assay results: EP4574169A1

Columns and labels:
ACE2 [1] = target: ACE2
ACE2 [2] = assay: ratio of ACE2 binding ELISA to Spike RBD detection ELISA; concentrated supernatant of virus-infected Vero cells
ACE2 [3] = assay: ACE2 binding detection ELISA (ACE2 on solid phase, detection with anti-spikeRBD antibody); concentrated supernatant of virus-infected Vero cells

Cov2S1Fc (polypeptide D: wild-type leader sequence, subunit 1 (S1) of the spike protein, Fc region of human IgG1 at the C-terminus) (Fc fusion)
ACE2 bind (ACE2 [1]): 1390 ng/mL | ACE2 bind/ Spike RBD (ACE2 [1]): 0.334 | ACE2 bind/ Spike RBD (ACE2 [2]): 2.07 | ACE2 bind (ACE2 [3]): 5.6 ng/mL

Read-outs that look alike come from different tables or passages of the source.
